Results: patent US8207175B2, “Inhibitor compounds” (University Court of the University of Dundee, priority 2005, dated 2012)

These compounds were tested against AfChiB1 (Aspergillus fumigatus, UniProt Q873X9). Conditions: read-out: IC50(AfChiB); Table 4.

| Compound | IC50 |
| --- | --- |
| Cn1cnc2c1c(=O)n(CC(O)Cn1c(=O)c3c(ncn3C)n(C)c1=O)c(=O)n2C | 1.4 µM |
| CC(CCn1c(=O)c2c(ncn2C)n(C)c1=O)n1c(=O)c2c(ncn2C)n(C)c1=O (stereo not shown) | 1.1 µM |
| CC(Cn1c(=O)c2c(ncn2C)n(C)c1=O)Cn1c(=O)c2c(ncn2C)n(C)c1=O | 12 µM |
| C=C(Cn1c(=O)c2c(ncn2C)n(C)c1=O)Cn1c(=O)c2c(ncn2C)n(C)c1=O | 5.7 µM |
